Results taken from patent US10080365B2, “Use of strobilurin type compounds for combating phytopathogenic fungi resistant to Qo inhibitors” (BASF SE, priority 2011, dated 2018).

System: Septoria tritici
Assay: Field Trial 2: efficacy against Septoria tritici on winter wheat (Limburgerhof)
Format: in vivo, Septoria tritici on winter wheat (cv. Riband)
Settings: after the treatments, 200 g a.i./ha
Protocol: Compound I-6 was used as 50 g/l EC formulation. Pyraclostrobin was used as commercial product HEADLINE.
This trial was conducted under field conditions in Limburgerhof, Rhineland-Palatinate, Germany. Seeds of winter wheat (cv. Riband) were planted and grown under standard conditions with adequate supply of water and nutrients. At growing stage GS 33 (Apr. 8, 2011), a first compound treatment (200 g a.i per ha) was made with a water volume of 400 L/ha, which was repeated 26 days later at growing stage GS 39. No further fungicide treatments were applied. Infection with fungal pathogens (e.g. Septoria tritici) occurred naturally. The evaluation of the disease incidences for Septoria tritici 19 and 34 days after the last treatment (DAA) are shown in Table IV. In the last row, the evaluation of the percentage of Qo inhibitor-resistant Septoria tritici isolates with the G143A mutation after the treatments is given.

CNC(=O)C(=N/OC)/C(C)=C\COc1ccn(-c2ccc(Cl)cc2)n1 [Compound I-6, (Z)-5-[1-(4-Chloro-phenyl)-1H-pyrazol-3-yloxy]-2-[(E)-methoxyimino]-3-methyl-pent-3-enic acid methyl amide]
Percentage of G143A mutation (%) in Septoria tritici isolates: 99%

COC(=O)N(OC)c1ccccc1COc1ccn(-c2ccc(Cl)cc2)n1 [Pyraclostrobin, reference compound]
Percentage of G143A mutation (%) in Septoria tritici isolates: 100%
